According to patent US20240122867A1, “CORONAL PROTEIN-COATED NANOPARTICLES AND USES THEREOF” (UNIVERSITY OF CENTRAL FLORIDA RESEARCH FOUNDATION, INC., priority 2021, published 2024):

B1: Afamin (protein, UniProt O89020 22-608, looked up)
Afamin: LPTKPQDVDHFNATQKFIDENTTYLAIIAFSQYVQEASFDEVETLVKVMLDYRDRCWADNTLPECSKTANDAIQDMLCDMEGLPQKHNFSHCCGKAGFPRRLCFFYNKKANVGFLPPFPTLDPEEKCQAYKNNSESFLHLYMYEVARRNPFVFAPVLLAVAAWFEEAATTCCEQQQKATCFQAKAAPITQYLKASSSYQRNVCGALIKFGPKVLNSINVAVFSKKFPKIGFKDLTTLLEDVSSMYEGCCEGDVVHCIRSQSQVVNHICSKQDSISSKIKVCCEKKTLEREACIINANKDDRPEGLSLREAKFTESENVCQERDSDPDKFFAEFIYEYSRRHPDLSTPELLRITKVYMDFLEDCCSRENPAGCYRHVEDKFNETTQRSLAMVQQECKQFQELGKDTLQRHFLVKFTKAAPQLPMEELVSLSKEMVAALTTCCTLSDEFACVDNLADLVLGELCGVNTNRTINPAVDHCCKTDFAFRRHCFEHLKADTTYELPSVSALVSALHTDWCQPRKEDLQNKKHRFLVNLVKWMPGITDEEWLCLFTKFTAAREECSEVQEPESCFSPESSKTGDESQATEKQR
B2: Inter-alpha-trypsin inhibitor heavy chain H2 (protein, UniProt Q61703 55-702, looked up)
Inter-alpha-trypsin inhibitor …: SLPEESGEETDTVDPVTLYSYKVQSTITSRVATTTIQSKLVNNSPLPQSVVFDVQIPKGAFISNFTMTVNGMTFTSSIKEKTVGRALYSQARAKGKTAGWVRSRTLDMENFNTEVNIPPGAKVQFELHYQEVKWRKLGSYEHKIHLQPGKLAKHLEVNVWIIEPQGMRFLHVPDTFEGHFQGVPVISKGQQKAHVSFKPTVAQQRKCPNCTETAVNGELVVMYDVNREEKAGELEVFNGYFVHFFAPENLDPIPKNILFVIDVSGSMWGIKMKQTVEAMKTILDDLRTDDQFSVVDFNHNVRTWRNDLVSATKTQIADAKRYIEKIQPSGGTNINEALLRAIFILNEASNMGLLNPDSVSLIILVSDGDPTVGELKLSKIQKNVKQSIQDNISLFSLGIGFDVDYDFLKRLSNENRGIAQRIYGNQDTSSQLKKFYNQVSTPLLRNVQFNYPQASVTDVTQNNFHNYFGGSEIVVAGKFDPSKLTEVQSIITATSANTELVLETLSQMDDLEEFLSKDKHADPDFTKKLWAYLTINQLLAERSLAPTAAIKRKITKTILQMSLDHHIVTPLTAMVIENDAGDERMLADSPPQDHSCCSGALYYGTKVASGPIPSWANPSPTPMSAMLAVGAKPLESTPPTHLNQVEND
B3: Inter-alpha-trypsin inhibitor heavy chain H3 (protein, UniProt Q61704 34-649, looked up)
Inter-alpha-trypsin inhibitor …: SLPEGVVDGIEVYSTKISCKVTSRFAHNVVTTRAVNRADTAKEVSFDVELPKTAFITNFTLTIDGVTYPGNVKEKEVAQKQYEKAVSQGKTAGLVKASGRKLEKFTVSVNVAAGSKVTFELTYEELLKRNKGKYEMYLKVQPKQLVRHFEIDAHIFEPQGISMLDAEASFITNDLLGSALTKSFSGKKGHVSFKPSLDQQRSCPTCTDSLLNGDFTIVYDVNRESPGNVQIVNGYFVHFFAPQGLPVVPKNIVFVIDVSGSMSGRKIQQTREALLKILDDVKEDDYLNFILFSTDVTTWKDHLVQATPANLKEAKTFVKNIHDQSMTNINDGLLKGIEMLNKAREDHTVPERSTSIIIMLTDGDANTGESRPEKIQENVRNAIGGKFPLYNLGFGNNLNYNFLETLALENHGLARRIYEDSDANLQLQGFYEEVANPLLTNVEVEYPENAILDLTRNSYPHFYDGSEIVVAGRLVDRNMDNFKADVKGHGALNDLTFTEEVDMEEMDAALKEQGYIFGDYIERLWAYLTIEQLLEKRKNAKGDEKENITAEALDLSLKYHFVTPLTSMVVTKPEDNEDQTSIADKPGEEAIAETTTMSFLTTQQSSQSPYYYVDGD
B4: Vitronectin (protein, UniProt P29788 20-478, looked up)
Vitronectin: DQESCKGRCTQGFMASKKCQCDELCTYYQSCCADYMEQCKPQVTRGDVFTMPEDDYWSYDYVEEPKNNTNTGVQPENTSPPGDLNPRTDGTLKPTAFLDPEEQPSTPAPKVEQQEEILRPDTTDQGTPEFPEEELCSGKPFDAFTDLKNGSLFAFRGQYCYELDETAVRPGYPKLIQDVWGIEGPIDAAFTRINCQGKTYLFKGSQYWRFEDGVLDPGYPRNISEGFSGIPDNVDAAFALPAHRYSGRERVYFFKGKQYWEYEFQQQPSQEECEGSSLSAVFEHFALLQRDSWENIFELLFWGRSSDGAREPQFISRNWHGVPGKVDAAMAGRIYVTGSLSHSAQAKKQKSKRRSRKRYRSRRGRGHRRSQSSNSRRSSRSIWFSLFSSEESGLGTYNNYDYDMDWLVPATCEPIQSVYFFSGDKYYRVNLRTRRVDSVNPPYPRSIAQYWLGCPTSEK
B5: Clusterin (protein, UniProt Q06890 22-448, looked up)
Clusterin: EQEVSDNELQELSTQGSRYINKEIQNAVQGVKHIKTLIEKTNAERKSLLNSLEEAKKKKEDALEDTRDSEMKLKAFPEVCNETMMALWEECKPCLKHTCMKFYARVCRSGSGLVGQQLEEFLNQSSPFYFWMNGDRIDSLLESDRQQSQVLDAMQDSFARASGIIDTLFQDRFFARELHDPHYFSPIGFPHKRPHFLYPKSRLVRSLMSPSHYGPPSFHNMFQPFFEMIHQAQQAMDVQLHSPAFQFPDVDFLREGEDDRTVCKEIRRNSTGCLKMKGQCEKCQEILSVDCSTNNPAQANLRQELNDSLQVAERLTEQYKELLQSFQSKMLNTSSLLEQLNDQFNWVSQLANLTQGEDKYYLRVSTVTTHSSDSEVPSRVTEVVVKLFDSDPITVVLPEEVSKDNPKFMDTVAEKALQEYRRKSRAE
B6: Phosphatidylinositol-glycan-specific phospholipase D (protein, UniProt O70362 24-837, looked up)
Phosphatidylinositol-glycan-sp …: CGLSTHVEIGHRALEFLRLQDGRINYKELILEHQDAYQAGTVFPDAFYPSICKRGKYHDVSERTHWTPFLNASIHYIRENYPLPWEKDTEKLVAFLFGITSHMVADLSWHNLGFLRTMGAIDFYNSYSDAHSAGDFGGDVLSQFEFNFNYLSRRWYVPVRDLLRIYDNLYGRKVITKDVLVDCTYLQFLEMHGEMFAVSKLYSTYSTKSPFLVEQFQDYFLGGLDDMAFWSTNIYRLTSFMLENGTSDCNLPENPLFISCDGRNHTLSGSKVQKNDFHRNLTMFISRDIRKNLNYTERGVFYSTGSWARPESVTFMYQTLERNLRLMLAGSSQKNLNHVSSPSASYTLSVPYARLGWVMTSADLNQDGHGDLVVGAPGYSHPGRFQIGRVYIIYGNDLGLPPIDLDLNKEGILEGFQPSGRFGSALAVLDFNQDGLPDLAVGAPSVGSGQLTYNGSVYVYYGSQQGRLSSSPNVTISCKDTYCNLGWTLLATDADGDGRHDLVISSPFAPGGRKQKGIVATFYSHPRRNDKELLTLEEADWKVNGEEDFSWFGYSLHGVTVANRSLLLIGSPTWKNVSRMARSSHKKNQEEKSLGKVYGYFLPNRQSTITISGDKAMGKLGTSLSSGYVRVNGTLTQVLLVGAPTHDDVSKMAFLTMTLHQGGATRMYELAPEKTQPALLSTFSGDRRFSRFGSVLHLTDLDDDGLDEIIMAAPLRITDVTSGLLGGEDGRVYIYNGMYTTLGDMTGKCKSWMTPCPEEKAQYVLTSPEASSRFGSSLVSVRSKGRNQVVVAAGRSSWGARLSGALHVYSFSSD
B7: Apolipoprotein A-I (protein, UniProt Q00623 25-264, looked up)
Apolipoprotein A-I: DEPQSQWDKVKDFANVYVDAVKDSGRDYVSQFESSSLGQQLNLNLLENWDTLGSTVSQLQERLGPLTRDFWDNLEKETDWVRQEMNKDLEEVKQKVQPYLDEFQKKWKEDVELYRQKVAPLGAELQESARQKLQELQGRLSPVAEEFRDRMRTHVDSLRTQLAPHSEQMRESLAQRLAELKSNPTLNEYHTRAKTHLKTLGEKARPALEDLRHSLMPMLETLKTQVQSVIDKASETLTAQ
B8: Cluster of Keratin, type II cytoskeletal 2 epidermal (protein, UniProt Q3TTY5 1-707, looked up)
Keratin, type II cytoskeletal …: MSCQISCRSRRGGGGGGGGGFRGFSSGSAVVSGGSRRSNTSFSCISRHGGGRGGSGGGGFGSQSLVGLGGYKSISSSVAGNSGGYGGSSFGGSSGFGGGRGFGGGQGFGGSGGFGGGSGFGGGQGFGGGSRFGGGSGFGGGGFGGGSFGGGRFGGGPGGFGGPGGFPGGGIHEVSVNQSLLQPLDVKVDPEIQNVKSQEREQIKTLNNKFASFIDKVRFLEQQNQVLRTKWELLQQLDVGSRTTNLDPIFQAYIGMLKKQVDRLSAERTSQESELNNMQDLVEDFKKKYEDEINKRTSAENDFVTIKKDVDSCYMDKTELQARLDILAQEVNFLRTLYDAELSQLQQDVTDTNVILSMDNNRNLDLDSIIAEVQNQYEMIAHKSKAESEELYHSKYEELQVTAVKHGDSLKEIKMEISELNRTIQRLQGEISHVKKQCKGVQDSIADAEQRGEHAIKDARGKLTDLEEALQQCREDLARLLRDYQELMNTKLSLDVEIATYRKLLEGEECRMSGDFSDNVSVSITSSTISSSVASKTGFGSGGQSSGGRGSYGGRGGGGGGGSTYGSGGRSSGSRGSGSGSGGGGYSSGGGSRGGSGGGYGSGGGSRGGSGGGYGSGGGSGSGGGYSSGGGSRGGSGGGGVSSGGGSRGGSSSGGGSRGGSSSGGGGYSSGGGSRGGSSSGGAGSSSEKGGSGSGEGCGSGVTFSFR

Test system: coronal proteins on NPs
Set-up: species or system mouse
Details: HBPE-NPs incubated 1 h with IAV day 5 (V5) mouse sera, 20:1 NP:sera, centrifuged and washed

In order of falling “V5 Sera_Nanoparticles Quantitative Value (Normalized Total Spectra)” value:
1. B7  102.26
2. B1  17.407
3. B2  17.407
4. B3  16.319
5. B4  15.231
6. B5  15.231
7. B6  15.231
8. B8  13.055

Same assay, conditions: IAV day 5 (V5) mouse sera alone, no NPs (sera-only control)

In order of rising “V5 Sera Alone (Control) Quantitative Value (Normalized Total Spectra)” value:
1. B3  11.103
2. B1  12.028
3. B2  14.804
4. B6  25.906
5. B8  36.084
6. B5  37.934
7. B4  59.215
8. B7  112.88
